A mixed list of measured activities; the numbers were collected in NIAID ChemDB.

Shared fields: tests on isolated targets; species: HIV-1; target: Reverse transcriptase

Fold resistance has wild type as its base. ICn: concentration for n% inhibition. Two numbers with a dash give a range or band. Blank or dashed fields: not listed here. Neighbouring rows are from separate reports.

| SMILES | changes | strain or isolate | read by | read-out | result |
|---|---|---|---|---|---|
| Cc1nnc2ccc(N3CCc4ccccc4C3)nn12 |  | IIIB | RT activity / fluorescence | IC50 | 15.9 µM |
| CCc1cc(NCc2nc3c(C)ccc(C)c3o2)c(=O)[nH]c1C | RT-K103N Y181C |  | nucleotide incorporation | fold resistance | >6000 |
| CCN1c2ncc(CCOc3ccc(-c4cc(CC(=O)O)ccc4C)cc3C)cc2C(=O)N(C)c2cccnc21 | RT-K103N Y181C | IIIB | nucleotide incorporation / radiometric | IC50 | 0.05–0.1 µM |
| CCOC(=O)NC(C)(C)C#Cc1ccc(NC(=O)CSc2nnnn2-c2ccc(C3CC3)cc2Cl)c(Cl)c1 |  | WT | PicoGreen / fluorescence | IC50 | <1 µM |
| CCN1c2ncc(CCOc3ccc(-c4ccc(CC(=O)O)cc4OC)cc3C)cc2C(=O)N(C)c2cccnc21 |  | IIIB | nucleotide incorporation / radiometric | IC50 | <0.05 µM |
| CN(C)c1ccc(NC(=O)c2ccc(NC(=O)CSc3nnnn3-c3ccc(C(C)(C)C)cc3Cl)c(Cl)c2)cc1 |  | WT | PicoGreen / fluorescence | IC50 | <1 µM |
| FC(F)(F)Cc1nnc2c3ccccc3c(N3CCc4ccccc4C3)nn12 |  | KER2008 | RT activity / fluorescence | IC50 | 0.88 µM |
| NCCCCNc1nc(Cc2ccccc2)cc(=O)[nH]1 | RT-V179D |  |  | Ki | >1000 µM |
| CCN1c2ncc(CCOc3ccc(-c4ccc(C(=O)O)c(F)c4)cc3C)cc2C(=O)N(C)c2cccnc21 | RT-K103N Y181C | IIIB | nucleotide incorporation / radiometric | IC50 | <0.05 µM |
| CC(C)(C#Cc1ccc(NC(=O)CSc2nnnn2-c2ccc(C3CC3)cc2Cl)c(Cl)c1F)OCCN1CCCC1 |  | WT | PicoGreen / fluorescence | IC50 | <1 µM |
| Nc1ccc2c(c1)CN(c1nn3c(-c4cccs4)nnc3c3ccccc13)CC2 |  | 98US_MSC5016 | RT activity / fluorescence | IC90 | 8.51 µM |
| O=c1cc(Cc2ccccc2)nc(NCCCCO)[nH]1 | RT-L100I |  |  | fold resistance | 1.28 |
| COc1ccc(Cl)c(-n2nnnc2SCC(=O)Nc2ccc(C#CC(C)(C)C(=O)O)cc2Cl)c1 | RT-K103 Y181C |  | PicoGreen / fluorescence | IC50 | <1 µM |
| FC(F)(F)c1cccc2c1CCN(c1nn3c(C4CC4)nnc3c3ccccc13)C2 |  | KER2008 | RT activity / fluorescence | IC90 | 62.3 µM |
| CC(C)(C#Cc1ccc(NC(=O)CSc2nnnn2-c2ccc(C3CC3)cc2Cl)c(Cl)c1)NC(=O)OC(C)(C)C |  | WT | PicoGreen / fluorescence | IC50 | <1 µM |
| CCN1c2ncc(CCOc3ccc(-c4ccc(C(=O)O)cc4)cc3C)cc2C(=O)N(C)c2cccnc21 | RT-K103N Y181C | IIIB | nucleotide incorporation / radiometric | IC50 | <0.05 µM |
| Cc1ccc2c(c1)CCN(c1nn3c(C4CC4)nnc3c3ccccc13)C2 |  | KER2008 | RT activity / fluorescence | IC50 | 0.58 µM |
| CC(C)(C)c1ccc(-n2nnnc2SCC(=O)Nc2ccc(-c3ccc(OCCN4CC[C@@H](O)C4)cc3)cc2Cl)c(Cl)c1 | RT-K103 Y181C |  | PicoGreen / fluorescence | IC50 | <1 µM |
| Cc1nnc2c3ccccc3c(N3Cc4ccccc4C(C)(C)C3)nn12 |  | KER2008 | RT activity / fluorescence | IC90 | 57.4 µM |
| CC(C)(C)c1ccc(-n2nnnc2SCC(=O)Nc2ccc(NC(=O)Cc3ccccc3C(F)(F)F)cc2Cl)c(Cl)c1 | RT-K103 Y181C |  | PicoGreen / fluorescence | IC50 | <1 µM |
| COC(=O)NCCCCNc1nc(Cc2ccccc2)c(C)c(=O)[nH]1 | RT-V179D |  |  | Ki | >1000 µM |
| CC(C)(C)c1ccc(-n2nnnc2SCC(=O)Nc2ccc(NC(=O)Cc3ccc([N+](=O)[O-])cc3)cc2Cl)c(Cl)c1 | RT-K103 Y181C |  | PicoGreen / fluorescence | IC50 | <1 µM |
| CCN1c2ncccc2NC(=O)c2cc(CCOc3ccc(-c4ccc(CC(=O)O)cc4)cc3C)cnc21 | RT-K103N Y181C | IIIB | nucleotide incorporation / radiometric | IC50 | 0.05–0.1 µM |
| Cc1nnc2c3ccccc3c(N3CCc4ccc(C(=O)O)cc4C3)nn12 |  | KER2008 | RT activity / fluorescence | IC90 | 28.2 µM |
| CCN1c2ncc(CCOc3ccc(-c4ccc(C(=O)O)c(C)c4)cc3C)cc2C(=O)N(C)c2cccnc21 |  | IIIB | nucleotide incorporation / radiometric | IC50 | <0.05 µM |
| Nc1ccc2c(c1)CN(c1nn3c(C4CC4)nnc3c3ccccc13)CC2 |  | KER2008 | RT activity / fluorescence | IC50 | 0.25 µM |
| CC(C)(C#Cc1ccc(NC(=O)CSc2nnnn2-c2cc(Br)ccc2Cl)c(Cl)c1)C(=O)O | RT-K103 Y181C |  | PicoGreen / fluorescence | IC50 | <1 µM |
| CCN1c2ncc(CCOc3ccc(-c4csc(N)n4)cc3C)cc2C(=O)N(C)c2cccnc21 | RT-K103N Y181C | IIIB | nucleotide incorporation / radiometric | IC50 | <0.05 µM |

A second listing of 3 rows from above:

SMILES,changes,strain or isolate,read by,read-out,result
Nc1ccc2c(c1)CN(c1nn3c(-c4cccs4)nnc3c3ccccc13)CC2,,98US_MSC5016,RT activity / fluorescence,IC90,8.51 µM
Nc1ccc2c(c1)CN(c1nn3c(C4CC4)nnc3c3ccccc13)CC2,,KER2008,RT activity / fluorescence,IC50,0.25 µM
CCOC(=O)NC(C)(C)C#Cc1ccc(NC(=O)CSc2nnnn2-c2ccc(C3CC3)cc2Cl)c(Cl)c1,,WT,PicoGreen / fluorescence,IC50,<1 µM